Pooled drug test results. Numbers come from NIAID ChemDB, via PubChem.

Shared fields: toxicity to cultured cells; endpoint: CC50

a–b is a range or a potency band. CCn is the concentration with n% toxicity to the cells. Neighbouring rows are from separate reports. An empty or dashed field is not shown.

structure,read by,cell line,value
Nc1nc(Cl)cc(NCC2(CO)CC(c3ccccc3)C2)n1,,MDCK,5–8.8 µM
O=C(CCC(=O)N1CCCN(C(=O)CCC(=O)NCCOCCOCCN2C(=O)C=CC2=O)CCCN(C(=O)CCC(=O)NCCOCCOCCN2C(=O)C=CC2=O)CCC1)NCCOCCOCCN1C(=O)C=CC1=O,,PM1 (PHA stimulated),1.3 µM
CCCCCSc1nc(N)nc2c1ncn2/C=C1/C[C@@H]1CO,,BSCL-1,>156 µM
C[C@H](Cc1ccc(OCCN2CCCCC2)c(OCCN2CCCCC2)c1)[C@@H](C)Cc1ccc(OCCN2CCCCC2)c(OCCN2CCCCC2)c1,,COS,3.83 µM
Nc1ccn([C@@H]2CC[C@H](CO)O2)c(=O)n1,,U-937,70 µM
C[N+](C)(C)CCOP(=O)([O-])OP(=O)(O)OCC1CCC(n2ccc(N)nc2=O)O1,,ATH8,>100 µM
CC(O)C1(CNc2cc(Cl)nc(N)n2)CCC1,,MDCK,110 µM
Nc1nc(OCC2CC2)c2ncn(/C=C3/C[C@@H]3CO)c2n1,,BSCL-1,130 µM
N#Cc1cn(CCSc2cc(C(F)(F)F)nc3ccccc23)c(=O)[nH]c1=O,MTT,MT-2 human T-cells,>100 µM
N=C(N)c1cccc(OCc2ccc(Cl)cc2)c1,,HUT4-3/SX22-1,<100 µM
NCC1CC12C1CC3CC(C1)CC2C3,,HEF,28 µg/mL
c1ccc(Nc2cc(Nc3ccccc3)ncn2)cc1,MTT,Vero cell,<3 µM
Fc1ccc(-c2nc(=S)[nH][nH]2)cc1,MTT,Panc-1,>100 µg/mL
NC1CC12C1CC3CC(C1)CC2C3,,HEF,80 µg/mL
CC1(C)CC[C@@]2(C(=O)NCc3cn(Cc4ccccc4Cn4cc(CNC(=O)[C@]56CCC(C)(C)CC5C5=CCC7[C@@]8(C)CC[C@H](O)C(C)(C)C8CC[C@@]7(C)[C@]5(C)C[C@H]6O)nn4)nn3)C(C1)C1=CCC3[C@@]4(C)CC[C@H](O)C(C)(C)C4CC[C@@]3(C)[C@]1(C)C[C@H]2O,resazurin,293T,>100 µM
CC[C@@]1(O)C(=O)OCc2c1cc1n(c2=O)Cc2cc3c(CN(C)C)c(O)ccc3nc2-1,,293.27.2,0.03–0.1 µM
OC[C@H]1O[C@@H](n2cnc3c(CCSC4CCCCC4)ncnc32)[C@H](O)[C@@H]1O,,Huh7 (MT-4),>100 µM
O=C(c1ccccc1)c1ccc(NC(=O)c2cc(Cl)ccc2O)cc1,MTT,Mono Mac 6,48 µM
CC1(C(=O)NCCOCCN2C(=O)C=CC2=O)CC(C)(C(=O)NCCOCCN2C(=O)C=CC2=O)CC(C)(C(=O)NCCOCCN2C(=O)C=CC2=O)C1,,PM1 (PHA stimulated),1.8 µM
CN(C)c1ccc(-c2cn3c(=O)c4ncn([C@H]5C=C[C@@H](CO)C5)c4nc3[nH]2)cc1,,PBM,24 µM
Nc1nc(Cl)cc(NCC2(CO)CC(CCCc3ccccc3)C2)n1,,MDCK,0.097–0.31 µM
COc1ccc(/C=N/NC(=O)Nc2cccc3nsnc23)c(Cl)c1OC,luminescence,Cf2Th-CD4/CCR5,>112 µM
Nc1nc2c(ncn2COC(CO)CO)c(=O)[nH]1,,MEF,>359 µM
CCC#Cc1cn([C@@H]2O[C@H](CO)[C@@H](O)[C@@]2(C)O)c2ncnc(N)c12,,ET,>50 µM
COc1cc2c(cc1C(C)NC/C=C/c1ccccc1)C=CC(C)(C)O2,,L6 rat skeletal myoblasts,4.41 µM
O=c1[nH]c(=S)ccn1[C@@H]1O[C@H](COP(=O)(O)O)[C@@H](O)[C@H]1O,XTT,MAGI,>200 µM
Nc1ncnc2c1ncn2C=C1CC1(F)CO,,Akata,>199 µM
N=C(N)c1cccc(OCc2ccc(Br)cc2)c1,,HUT4-3/SX22-1,<100 µM
CC[C@@H](CCC[C@@H](CO)N(CCC(C)C)S(=O)(=O)c1ccc(N)cc1)NC(=O)[C@@H](NC(=O)OCc1ccncc1)C(c1ccccc1)c1ccccc1,microscopy,T lymphoid cells,>10 µM
Nc1nc2c(ncn2/C=C2/CC2(CO)CF)c(=O)[nH]1,,Akata,55.7 µM
O=C(CCN1C(=O)C=CC1=O)N1CCCN(C(=O)CCN2C(=O)C=CC2=O)CCCN(C(=O)CCN2C(=O)C=CC2=O)CCC1,,PM1 (PHA stimulated),1.5 µM
O=C(N/N=C/c1ccc(O)c(Cl)c1)Nc1cccc2nsnc12,luminescence,Cf2Th-CD4/CCR5,19.2 µM
COC(=O)C(Cc1c[nH]c2ccccc12)NP(=O)(O)OCC1C/C1=C/n1cnc2c(N)ncnc21,,BSC-1,>100 µM
C#CCNc1nc(N)nc2c1ncn2/C=C1/C[C@@H]1CO,,BSCL-1,>185 µM
CCCCN1C(c2sc(C)nc2C)=NNC1SC,MTT,KBALB,>100 µM
O=C(NCc1ccc(Cl)cc1)c1c[nH]c2ccc(C#CCO)cc2c1=O,,REF,39.6 µM
O=C(O)P(=O)(O)O,,MA-104,10–1000 µM
CCOC(=O)CCCCCOc1cccc(CN(C(=O)c2ccc(-c3cccc(Br)c3)cc2)C(C)C)c1,,BJ,>20 µM
COC(=O)N[C@H](C(=O)N[C@@H](C)CCC[C@@H](CO)N(CC1CC1)S(=O)(=O)c1ccc(N)cc1)C(c1ccccc1)c1ccccc1,microscopy,T lymphoid cells,>10 µM
O=c1nc(NCc2ccc(-c3ccccn3)s2)c2cccnc2n1O,,PM1,>10 µM
COc1ccc(-c2cn3c(=O)c4ncn([C@H]5CC(N=[N+]=[N-])[C@@H](CO)O5)c4nc3[nH]2)cc1,,PBM,56.7 µM
O=C(Oc1ccc(Cl)cc1C(=O)Nc1ccc(Cl)c(Cl)c1)c1cnc(Cl)cn1,MTT,Mono Mac 6,10.1 µM
CC1(Cc2ccccc2)OS(=O)(=O)C=C1OCc1ccccc1,,HEL fibroblasts,68 µM
COC(=O)Oc1ccc(C[C@@H](C)[C@@H](C)Cc2ccc(OC(=O)OC)c(OC(=O)OC)c2)cc1OC(=O)OC,,COS,34.75 µM
FC(F)(F)c1ccc(-c2nc(=S)[nH][nH]2)cc1,MTT,Panc-1,>100 µg/mL
O=C(N/N=C/c1c(O)cc(O)cc1O)Nc1cccc2nsnc12,luminescence,Cf2Th-CD4/CCR5,64 µM
CCc1nc2ccc(C)cc2n1CCCNc1ccccc1,luminescence,Macrophages,>50 µM
O=C(NCCCl)Oc1ccc(Cl)cc1C(=O)Nc1ccc(C(F)(F)F)cc1,MTT,Mono Mac 6,7.6 µM
CCN([C@H](CO)CCC[C@H](C)NC(=O)[C@@H](NC(=O)OC)C(c1ccccc1)c1ccccc1)S(=O)(=O)c1ccc(N)cc1,microscopy,T lymphoid cells,>10 µM
C#CCSc1n[nH]c(-c2ccc([N+](=O)[O-])c(C(F)(F)F)c2)n1,MTT,Panc-1,>100 µg/mL
O=C(N/N=C/c1ccccc1O)Nc1cccc2nsnc12,luminescence,Cf2Th-CD4/CCR5,<0.5 µM
Cc1ccc(OCCn2ccc(=O)[nH]c2=O)c(Cc2ccccc2)c1,MTT,MT-2 human T-cells,72 µM
COc1ccc(/C=N/NC(=O)Nc2cccc3nsnc23)cc1OC,luminescence,Cf2Th-CD4/CCR5,25.9 µM
Cc1ccc(Cl)cc1-c1nc(=S)[nH][nH]1,MTT,Panc-1,>100 µg/mL
CCC1(Cc2ccccc2)OS(=O)(=O)C=C1OCc1ccc(C(F)(F)F)cc1,,HEL fibroblasts,99 µM
[N-]=[N+]=NC1C[C@H](n2cnc3c(=O)n4cc(-c5ccccc5)[nH]c4nc32)O[C@@H]1CO,,PBM,69.6 µM
COC(=O)N[C@@H](Cc1cccc2ccccc12)C(=O)N[C@H](CCC[C@@H](CO)N(CCC(C)C)S(=O)(=O)c1ccc(N)cc1)C1CC1,microscopy,T lymphoid cells,>10 µM
CC(C)COc1cccc(-c2ccc(C(=O)N(Cc3cccc(OCCCCCC(=O)OC(=O)O)c3)C(C)C)cc2)c1,,HEK 293,>20 µM
CCCSc1nc(N)nc2c1ncn2/C=C1/C[C@@H]1CO,,BSCL-1,148 µM
CCCN([C@H](CO)CCC[C@@H](NC(=O)[C@H](Cc1ccccc1Cl)NC(=O)OC)C(F)(F)F)S(=O)(=O)c1ccc(CO)cc1,microscopy,T lymphoid cells,>10 µM
O=C(Nc1ccc(C(F)(F)F)cc1)c1cc(Br)ccc1O,MTT,Mono Mac 6,7.6 µM
COc1cc2c(cc1OC)C(C)=NCC2,,RAJI,<7.5 µM
O=[N+]([O-])c1ccc(-c2nc(=S)[nH][nH]2)cc1C(F)(F)F,MTT,Panc-1,>100 µg/mL
O=C(N/N=C/c1cccc(O)c1O)Nc1cccc2nsnc12,luminescence,Cf2Th-CD4/CCR5,50.5 µM
Oc1cccc(Nc2ncnc3sc(-c4ccccc4)cc23)c1,MTT,MT-2 human T-cells,14 µM
Nc1ncc(N)c(NCC2(CO)CC(Cc3ccccc3)C2)n1,,MDCK,8–23 µM
CC(C)N(Cc1cccc(OCCCCCC(=O)OC(=O)O)c1)C(=O)c1ccc(-c2cccc(Oc3ccccc3)c2)cc1,,BJ,<13.5 µM
CNCC1CC12C1CC3CC(C1)CC2C3,,HEF,50 µg/mL
COC(=O)C1=CN[C@@H]2OC[C@]3(O)C=C[C@H]1[C@H]23,resazurin,L6 rat skeletal myoblasts,50.3 µg/mL
COc1ccc(C2C(C(=O)/C=C/c3ccc(Cl)cc3)=C(/C=C/c3ccc(Cl)cc3)N=C3SC=C(C)N32)cc1,resazurin,C1008 (Vero cells),273 µg/mL
CC(C)(C)OC(=O)NCC(OC(=O)C(O)CO)c1ccc2c(c1)OCO2,,RAJI,<7.5 µM
COC(=O)N[C@H](C(=O)N[C@@H](C)CCC[C@@H](CO)N(CCC(C)C)S(=O)(=O)c1ccc(CO)cc1)C(c1ccccc1)c1ccccc1,microscopy,T lymphoid cells,>10 µM
Cc1nc2cc(NC(=O)c3ccc(S(=O)(=O)N(C)Cc4ccccc4)cc3)ccc2s1,absorbance,HepDE19,2.57 µM
CC(C)N(Cc1cccc(OCCCCCC(=O)OC(=O)O)c1)C(=O)c1ccc(-c2cccc(Cl)c2)cc1,,HEK 293,>20 µM
CCN1CCCC12C1CC3CC(C1)CC2C3,,HEF,>200 µg/mL
C=C(C)[C@@H]1CCC2(C(=O)OC)CC[C@]3(C)C(CCC4[C@@](C)(CC#N)C(C(C)(C)C(=O)Nc5nccs5)CC[C@]43C)C12,MTT,MS,85.2 µM
O=C(NCCCCl)Oc1ccc(Cl)cc1C(=O)Nc1ccc(C(F)(F)F)cc1,MTT,Mono Mac 6,8.8 µM
CC(C)N(Cc1cccc(OCCCCCC(=O)OC(=O)O)c1)C(=O)c1ccc(-c2ccc3ccccc3c2)cc1,,RAJI,>20 µM
CCCCCCCCCCCCCC(=O)NCC(N)=O,,LC5,>50 µg/mL
COc1cc(/C=C/C(=O)C2=C(/C=C/c3cc(OC)c(OC)c(OC)c3)N=C3SC=C(C)N3C2c2cc(OC)c(OC)c(OC)c2)cc(OC)c1OC,resazurin,C1008 (Vero cells),167 µg/mL
O=C(Oc1ccc(Br)cc1C(=O)Nc1ccc(C(F)(F)F)cc1)c1cnc(Cl)cn1,MTT,Mono Mac 6,1.1 µM
CC(=O)O[C@H]1CC[C@@]2(C)[C@@H](CC[C@@]3(C)[C@H]2CC=C2[C@@H]([C@H](C)CC/C=C(\C)C(=O)O)CC[C@@]23C)C1(C)C,XTT,1A2,19.4 µg/mL
COc1ccc(/C=C/C(=O)C2=C(/C=C/c3ccc(OC)cc3)N=C3SC=C(C)N3C2c2cc(OC)c(OC)c(OC)c2)cc1,resazurin,C1008 (Vero cells),348 µg/mL
CCC1(Cc2ccccc2)OS(=O)(=O)C=C1NCc1ccccc1,,HEL fibroblasts,92 µM
N=C(N)c1cccc(Oc2ccccc2)c1,,HUT4-3/SX22-1,<100 µM
COC(=O)N[C@H](C(=O)N[C@@H](C)CCC[C@@H](CO)N(CCCF)S(=O)(=O)c1ccc(CO)cc1)C(c1ccccc1)c1ccccc1,microscopy,T lymphoid cells,>10 µM
N=C(N)c1cccc(OCc2ccccc2)c1,,HUT4-3/SX22-1,<100 µM
O=C(NCc1ccc(Cl)cc1)c1c[nH]c2c(F)cccc2c1=O,,REF,>50 µM
NC(N)=Nc1cccc(OCc2ccc(Cl)cc2)c1,,HUT4-3/SX22-1,<100 µM
O=C(N/N=C/c1ccc(O)c(O)c1)Nc1cccc2nsnc12,luminescence,Cf2Th-CD4/CCR5,56.3 µM
CC1=CSC2=NC(/C=C/c3ccc(OCc4ccccc4)cc3)=C(C(=O)/C=C/c3ccc(OCc4ccccc4)cc3)C(c3ccccc3)N12,resazurin,C1008 (Vero cells),>500 µg/mL
O=C(NCCCl)Oc1ccc(Cl)cc1C(=O)Nc1ccc(Cl)c(Cl)c1,MTT,Mono Mac 6,4.6 µM

Again, the opening 9 rows:

structure	read by	cell line	value
Nc1nc(Cl)cc(NCC2(CO)CC(c3ccccc3)C2)n1		MDCK	5–8.8 µM
O=C(CCC(=O)N1CCCN(C(=O)CCC(=O)NCCOCCOCCN2C(=O)C=CC2=O)CCCN(C(=O)CCC(=O)NCCOCCOCCN2C(=O)C=CC2=O)CCC1)NCCOCCOCCN1C(=O)C=CC1=O		PM1 (PHA stimulated)	1.3 µM
CCCCCSc1nc(N)nc2c1ncn2/C=C1/C[C@@H]1CO		BSCL-1	>156 µM
C[C@H](Cc1ccc(OCCN2CCCCC2)c(OCCN2CCCCC2)c1)[C@@H](C)Cc1ccc(OCCN2CCCCC2)c(OCCN2CCCCC2)c1		COS	3.83 µM
Nc1ccn([C@@H]2CC[C@H](CO)O2)c(=O)n1		U-937	70 µM
C[N+](C)(C)CCOP(=O)([O-])OP(=O)(O)OCC1CCC(n2ccc(N)nc2=O)O1		ATH8	>100 µM
CC(O)C1(CNc2cc(Cl)nc(N)n2)CCC1		MDCK	110 µM
Nc1nc(OCC2CC2)c2ncn(/C=C3/C[C@@H]3CO)c2n1		BSCL-1	130 µM
N#Cc1cn(CCSc2cc(C(F)(F)F)nc3ccccc23)c(=O)[nH]c1=O	MTT	MT-2 human T-cells	>100 µM